Pooled drug test results. Numbers come from NIAID ChemDB, via PubChem.

Common to all: growth or infection tests; agent: HIV-1; read-out: EC50

An empty or dashed field is not shown.

{"SMILES": "CC1([C@@H]2CC[C@]3(NCC(C)(C)N4CCS(=O)(=O)CC4)CC[C@]4(C)[C@H](CC[C@@H]5[C@@]6(C)CC[C@H](OC(=O)[C@H]7C[C@@H](C(=O)O)C7(C)C)C(C)(C)[C@@H]6CC[C@]54C)[C@@H]23)CC1", "cell line": "MT-2", "method": "p24 / ELISA", "strain or isolate": "92HT599", "result": ">0.02 µM"}
{"SMILES": "NC(=O)c1ccccc1SSc1ccccc1C(N)=O", "cell line": "CEM", "method": "cytopathic effect / XTT", "result": ">21 µM"}
{"SMILES": "COCCOCC(=O)O[C@H](C)[C@@H](CN[C@]12CC[C@@H](C3(C)CC3)[C@@H]1[C@H]1CC[C@@H]3[C@@]4(C)CC[C@H](OC(=O)[C@H]5C[C@@H](C(=O)O)C5(C)C)C(C)(C)[C@@H]4CC[C@@]3(C)[C@]1(C)CC2)N1CCS(=O)(=O)CC1", "cell line": "MT-2", "method": "p24 / ELISA", "strain or isolate": "92HT599", "result": "<0.01 µM"}
{"SMILES": "CCC(C)[C@@H](C(=O)N[C@@H](Cc1ccccc1)[C@H](O)CN(CC(C)C)S(=O)(=O)c1ccc(/C=N/O)cc1)N1CCN(Cc2cccc(C(C)C)n2)C1=O", "cell line": "MT-4", "method": "cytopathic effect / MTT", "result": "0.003 µM"}
{"SMILES": "COC[C@@H](c1ccc(C(F)(F)F)cc1)N1CCN(C2(C)CCN(C(=O)c3c(C)ncnc3C)CC2)C[C@@H]1C", "cell line": "TZM-bl", "mutations": "M518V F519L", "strain or isolate": "S", "result": "0.0022 µM"}
{"SMILES": "CC(C)OC(=O)OCOP(=O)(CO[C@H](C)Cn1cnc2c(N)ncnc21)OCOC(=O)OC(C)C", "cell line": "C8166", "method": "p24 / ELISA", "strain or isolate": "IIIB", "result": "0.00618 µM"}
{"SMILES": "O=C(NCc1ccc(F)cc1F)c1cn2c(c(O)c1=O)C(=O)N1C3CCC(C3)OC1C2", "conditions": "0% human serum", "cell line": "MT-4", "method": "GFP", "strain or isolate": "NL4-3", "result": "0.002 µM"}
{"SMILES": "Cc1cc(-c2ccc(C#N)cc2)cc(C)c1Oc1ccnc(S(=O)(=O)C(C)C(=O)Nc2ccc(C#N)cc2)n1", "cell line": "MT-4", "mutations": "F227L V106A", "method": "MTT", "strain or isolate": "IIIB", "result": "1.303 µM"}
{"SMILES": "CNS(=O)(=O)c1ccc(NC(=O)c2ccccc2SSc2ccccc2C(=O)Nc2ccc(S(=O)(=O)NC)cc2)cc1", "cell line": "CEM", "method": "cytopathic effect / XTT", "result": "1.7 µM"}
{"SMILES": "Cc1c(-c2c([C@H](OC(C)(C)C)C(=O)O)cnc3ccccc23)cc(F)c2c1CCCO2", "cell line": "MT-2", "result": "0.039 µM"}
{"SMILES": "Cc1cc(-c2ccc(C#N)cc2)cc(C)c1Oc1ccnc(S(=O)(=O)CC(=O)Nc2ccc(Cl)cc2)n1", "cell line": "MT-4", "mutations": "L100I", "method": "MTT", "strain or isolate": "IIIB", "result": "0.116 µM"}
{"SMILES": "COCCOCCOCCO[C@H](C)[C@@H](CN[C@]12CC[C@@H](C3(C)CC3)[C@@H]1[C@H]1CC[C@@H]3[C@@]4(C)CC[C@H](OC(=O)[C@H]5C[C@@H](C(=O)O)C5(C)C)C(C)(C)[C@@H]4CC[C@@]3(C)[C@]1(C)CC2)N1CCS(=O)(=O)CC1", "cell line": "MT-4", "mutations": "V7A", "method": "p24 / ELISA", "strain or isolate": "NL4-3", "result": "<0.05 µM"}
{"SMILES": "CC(C)NS(=O)(=O)c1ccc(NC(=O)c2ccccc2SSc2ccccc2C(=O)Nc2ccc(S(=O)(=O)NC(C)C)cc2)cc1", "cell line": "CEM", "method": "cytopathic effect / XTT", "result": "16 µM"}
{"SMILES": "C=C(C)[C@@H]1CC[C@]2(NC[C@H]([C@@H](C)O)N3CCS(=O)(=O)CC3)CC[C@]3(C)[C@H](CC[C@@H]4[C@@]5(C)CC[C@H](OC(=O)[C@H]6C[C@@H](C(=O)O)C6(C)C)C(C)(C)[C@@H]5CC[C@]43C)[C@@H]12", "cell line": "MT-2", "method": "p24 / ELISA", "strain or isolate": "92HT599", "result": "<0.01 µM"}
{"SMILES": "Cc1cc(/C=C/C#N)cc(C)c1Oc1ccnc(S(=O)(=O)CC(=O)Nc2ccc(Cl)cc2)n1", "cell line": "MT-4", "mutations": "Y188L", "method": "MTT", "strain or isolate": "IIIB", "result": "0.494 µM"}
{"SMILES": "CCC(C)[C@@H](C(=O)N[C@@H](Cc1ccccc1)[C@H](O)CN(CC(C)C)S(=O)(=O)c1ccc(/C=N/O)cc1)N1CC(=O)N(Cc2ccccn2)C1=O", "conditions": "50% human serum", "cell line": "MT-4", "method": "cytopathic effect / MTT", "result": "0.014 µM"}
{"SMILES": "Cc1cc(-c2ccc(C#N)cc2)cc(C)c1Oc1ccnc(S(=O)(=O)CC(=O)NCCc2ccc(Br)cc2)n1", "cell line": "MT-4", "method": "MTT", "strain or isolate": "IIIB", "result": ">8.44 µM"}
{"SMILES": "CCCc1cc(=O)oc2c3c(c4c(c12)OC(C)(C)CC4)O[C@@H](C)[C@H](C)[C@@H]3O", "cell line": "CEM + CEM-SS", "mutations": "RT-K101E", "method": "XTT", "strain or isolate": "NL4-3 1 (RT K101E)", "result": "3.5 µM"}
{"SMILES": "CCC(C)[C@@H](C(=O)N[C@@H](Cc1ccccc1)[C@H](O)CN(CC(C)C)S(=O)(=O)c1ccc(/C=N/O)cc1)N1CCN(Cc2ccccn2)C1=O", "cell line": "MT-4", "mutations": "PR-L10F V32I M46I I47V Q68E I84V", "method": "cytopathic effect / MTT", "strain or isolate": "A17 (LPV-resistant)", "result": "0.012 µM"}
{"SMILES": "Cc1cc(-c2ccc(C#N)cc2)cc(C)c1Oc1ccnc(S(=O)(=O)C(C)C(=O)Nc2ccc(Cl)cc2)n1", "cell line": "MT-4", "mutations": "L100I", "method": "MTT", "strain or isolate": "IIIB", "result": "0.069 µM"}
{"SMILES": "C=C(C)[C@@H]1CC[C@]2(NC[C@H]([C@@H](C)OC(=O)COCCOC)N3CCS(=O)(=O)CC3)CC[C@]3(C)[C@H](CC[C@@H]4[C@@]5(C)CC[C@H](OC(=O)[C@H]6C[C@@H](C(=O)O)C6(C)C)C(C)(C)[C@@H]5CC[C@]43C)[C@@H]12", "cell line": "MT-4", "method": "p24 / ELISA", "strain or isolate": "NL4-3", "result": "<0.01 µM"}
{"SMILES": "CC(C)C(NC(=O)c1ccccc1SSc1ccccc1C(=O)NC(C(=O)O)C(C)C)C(=O)O", "cell line": "CEM", "method": "cytopathic effect / XTT", "result": "17 µM"}
{"SMILES": "CC(C)[C@H](NC(=O)OCc1ccccn1)C(=O)N[C@@H](Cc1ccccc1)[C@@H](O)C[C@H](Cc1ccccc1)NC(=O)OCc1cccnc1", "cell line": "MT-4", "mutations": "PR-M46I V82T I84V", "method": "p24", "strain or isolate": "NL4-3", "result": "<3 µM"}
{"SMILES": "CC1([C@@H]2CC[C@]3(NC[C@H](CF)N4CCS(=O)(=O)CC4)CC[C@]4(C)[C@H](CC[C@@H]5[C@@]6(C)CC[C@H](OC(=O)[C@H]7C[C@@H](C(=O)O)C7(C)C)C(C)(C)[C@@H]6CC[C@]54C)[C@@H]23)CC1", "cell line": "MT-2", "method": "p24 / ELISA", "strain or isolate": "92HT599", "result": "<0.01 µM"}
{"SMILES": "CCC(C)Oc1ccc(NC(=O)c2ccccc2SSc2ccccc2C(=O)Nc2ccc(OC(C)CC)cc2)cc1", "cell line": "CEM", "method": "cytopathic effect / XTT", "result": "30 µM"}
{"SMILES": "CN(C)C1=C(C#N)/C(=C2/C(C#N)=C(N(C)C)N(c3ccc([N+](=O)[O-])cc3)c3c2n(C)c2ccccc32)c2c(c3ccccc3n2C)N1c1ccc([N+](=O)[O-])cc1", "cell line": "CEM + CEM-SS", "method": "cytopathic effect / XTT", "strain or isolate": "6S/AZT", "result": "0.5–1.41 µM"}
{"SMILES": "C[C@H](F)[C@@H](CN[C@]12CC[C@@H](C3(C)CC3)[C@@H]1[C@H]1CC[C@@H]3[C@@]4(C)CC[C@H](OC(=O)[C@H]5C[C@@H](C(=O)O)C5(C)C)C(C)(C)[C@@H]4CC[C@@]3(C)[C@]1(C)CC2)N1CCS(=O)(=O)CC1", "cell line": "MT-2", "method": "p24 / ELISA", "strain or isolate": "92HT599", "result": ">0.02 µM"}
{"SMILES": "Cc1cc(C#N)cc(C)c1Oc1ccnc(S(=O)(=O)CC(=O)Nc2ccc(C#N)cc2)n1", "cell line": "MT-4", "mutations": "K103N", "method": "MTT", "strain or isolate": "IIIB", "result": "0.003 µM"}
{"SMILES": "CCC(C)[C@@H](C(=O)N[C@@H](Cc1ccccc1)[C@H](O)CN(CC(C)C)S(=O)(=O)c1ccc(/C=N/O)cc1)N1CC(=O)N(Cc2cccnc2)C1=O", "conditions": "50% human serum", "cell line": "MT-4", "method": "cytopathic effect / MTT", "result": "0.016 µM"}
{"SMILES": "Cc1cc(/C=C/C#N)cc(C)c1Oc1ccnc(S(=O)(=O)CC(=O)NCCc2ccc(Br)cc2)n1", "cell line": "MT-4", "method": "MTT", "strain or isolate": "IIIB", "result": "0.794 µM"}
{"SMILES": "CC1([C@@H]2CC[C@]3(NC[C@H](CO)N4CCS(=O)(=O)CC4)CC[C@]4(C)[C@H](CC[C@@H]5[C@@]6(C)CC[C@H](OC(=O)[C@H]7C[C@@H](C(=O)O)C7(C)C)C(C)(C)[C@@H]6CC[C@]54C)[C@@H]23)CC1", "cell line": "MT-2", "method": "p24 / ELISA", "strain or isolate": "92HT599", "result": "<0.01 µM"}
{"SMILES": "Cc1cc(/C=C/C#N)cc(C)c1Oc1ccnc(S(=O)(=O)CC(=O)NCCc2ccc(Cl)cc2)n1", "cell line": "MT-4", "method": "MTT", "strain or isolate": "IIIB", "result": "0.49 µM"}
{"SMILES": "CCC(C)[C@@H](C(=O)N[C@@H](Cc1ccccc1)[C@H](O)CN(CC(C)C)S(=O)(=O)c1ccc(/C=N/O)cc1)N1CCN(Cc2ccc(OC)nc2)C1=O", "conditions": "50% human serum", "cell line": "MT-4", "method": "cytopathic effect / MTT", "result": "0.01 µM"}
{"SMILES": "CC(C)c1c(Cc2ccccc2)n(COCc2ccccc2)c(=O)[nH]c1=O", "cell line": "MT-4", "mutations": "K103N/Y181C", "method": "p24 / ELISA", "strain or isolate": "A17", "result": ">10 µM"}
{"SMILES": "Cc1cc(-c2ccc(C#N)cc2)cc(C)c1Oc1ccnc(S(=O)(=O)CC(=O)Nc2ccc(Br)cc2)n1", "cell line": "MT-4", "mutations": "E138K", "method": "MTT", "strain or isolate": "IIIB", "result": "0.091 µM"}

Repeating the final 5 entries:

SMILES,conditions,cell line,mutations,method,strain or isolate,result
CC1([C@@H]2CC[C@]3(NC[C@H](CO)N4CCS(=O)(=O)CC4)CC[C@]4(C)[C@H](CC[C@@H]5[C@@]6(C)CC[C@H](OC(=O)[C@H]7C[C@@H](C(=O)O)C7(C)C)C(C)(C)[C@@H]6CC[C@]54C)[C@@H]23)CC1,,MT-2,,p24 / ELISA,92HT599,<0.01 µM
Cc1cc(/C=C/C#N)cc(C)c1Oc1ccnc(S(=O)(=O)CC(=O)NCCc2ccc(Cl)cc2)n1,,MT-4,,MTT,IIIB,0.49 µM
CCC(C)[C@@H](C(=O)N[C@@H](Cc1ccccc1)[C@H](O)CN(CC(C)C)S(=O)(=O)c1ccc(/C=N/O)cc1)N1CCN(Cc2ccc(OC)nc2)C1=O,50% human serum,MT-4,,cytopathic effect / MTT,,0.01 µM
CC(C)c1c(Cc2ccccc2)n(COCc2ccccc2)c(=O)[nH]c1=O,,MT-4,K103N/Y181C,p24 / ELISA,A17,>10 µM
Cc1cc(-c2ccc(C#N)cc2)cc(C)c1Oc1ccnc(S(=O)(=O)CC(=O)Nc2ccc(Br)cc2)n1,,MT-4,E138K,MTT,IIIB,0.091 µM

ECn is the concentration giving n% inhibition of infection, replication or growth. Lines come from different laboratories, so protocols vary. Two numbers with a dash give a range or band.